Values from PubChem BioAssay AID1259414 (Drosophila RNAi Screening Center, 2018).
The screen tested about 24,000 reagents; below is a random part of those with a known target gene and a result. In the full data, about 1,210 (5%) were called active. 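Inactive calls also include excluded dsRNAs with several or no targets, genes unexpressed in JW18, and well A1, regardless of score.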 Names joined by + are all predicted targets of the reagent.

Test: 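Genome-wide screen for host control of endosymbiont load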 (primary screen)
System: Drosophila JW18 cells infected with Wolbachia
Reagents: long dsRNA against Drosophila genes, 0.25 µg dsRNA per well of a 384-well plate
Time to read-out: 5 days
Treatment: cells persistently infected with Wolbachia before knock-down; no added drug
Detection: 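Automated imaging of bacterial rRNA staining divided by host cell count, reported as plate-normalised robust z-score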
Direction: Wolbachia per cell robust z: higher = more Wolbachia per host cell than the plate typical
Rule for the call: 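Hit when robust z is 1.5 or more, or -1.5 or less, in at least two of three replicates; excludes dsRNAs with several or no targets, genes not expressed in JW18 and well A1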

Gene	amplicon	Wolbachia per cell robust z, rep 1	Wolbachia per cell robust z, rep 2	Wolbachia per cell robust z, rep 3	outcome
trbd (trabid)	DRSC16494	0.0727	0.731	1.14	inactive
trbd (trabid)	DRSC27999	1.61	1.87	0.686	active
ymp (yellow-emperor)	DRSC13720	0.296	-0.803	-2.74	inactive
ymp (yellow-emperor)	DRSC14482	-0.283	0.509	0.0722	inactive
Nt5c (5' nucleotidase C)	DRSC06711	-1.08	1.26	1.75	inactive
Nt5c (5' nucleotidase C)	DRSC27240	0.236	1.02	1.1	inactive
CG33062	DRSC22195	-0.573	-1.65	0.167	inactive
CG33062	DRSC27501	0.246	0.0734	-0.277	inactive
HisCl1 (Histamine-gated chloride channel subunit 1)	DRSC14945	1.14	-5.75	-0.252	inactive
CG6415	DRSC02954	1.07	0.775	-1.66	inactive
CG6415	DRSC29833	-0.265	0.58	0.324	inactive
CG30037	DRSC07305	0.557	-0.423	-0.161	inactive
CG42329	DRSC00373	-6.72	-6.9	0.461	inactive
CG42329	DRSC00682	-0.735	-0.0661	-0.297	inactive
CG15459	DRSC20530	0.304	-6.37	-2.28	inactive
CG15459	DRSC21383	0.391	0.488	1.22	inactive
CG15459	DRSC27861	0.0577	-0.217	0.546	inactive
CG31373	DRSC16052	-0.279	0.166	0.104	inactive
CG2964	DRSC27524	-1.19	0.442	0.323	inactive
CecC (Cecropin C)	DRSC16606	-1.27	0.681	-1.11	inactive
CG12909	DRSC06224	-0.196	-0.395	0.0844	inactive
CG12909	DRSC27706	-1.14	-0.415	-0.409	inactive
jumu (jumeau)	DRSC16651	1.29	1.03	0.657	inactive
jumu (jumeau)	DRSC40729	1.92	0.955	0.76	inactive
FucT6 (alpha1,6-fucosyltransferase)	DRSC19848	-3.5	0.653	-0.617	inactive
FucT6 (alpha1,6-fucosyltransferase)	DRSC26057	1.42	0.305	0.56	inactive
Inx7 + cm	DRSC18753	-0.0117	-0.0025	-0.661	inactive
CG5342	DRSC15776	-0.208	-0.769	-0.441	inactive
Eip63E (Ecdysone-induced protein 63E)	DRSC08658	0.254	0.198	0.422	inactive
Eip63E (Ecdysone-induced protein 63E)	DRSC40718	0.225	0.258	1.06	inactive
CG44004 + CG44005	DRSC36535	-0.408	-1.96	0.248	inactive
alpha-Catr (alpha-catenin related)	DRSC04669	-0.177	-3.97	-2.08	inactive
alpha-Catr (alpha-catenin related)	DRSC28046	-0.219	0.796	1.26	inactive
Prosalpha5 (Proteasome alpha5 subunit)	DRSC07514	1.62	1.47	1.19	inactive
CG18128	DRSC04304	0.243	-0.252	-0.5	inactive
Bili (Band4.1 inhibitor LRP interactor)	DRSC14405	-0.863	-0.932	1.05	inactive
bw (brown)	DRSC04005	-0.173	-0.992	-2.89	inactive
bw (brown)	DRSC04677	-0.806	-0.633	-0.836	inactive
gammaSnap2 (gamma Soluble NSF attachment protein 2)	DRSC15992	0.255	-1.11	1.02	inactive
Cpr50Ca (Cuticular protein 50Ca)	DRSC05454	1.19	0.688	1.53	inactive
Cpr50Ca (Cuticular protein 50Ca)	DRSC06372	0.864	0.317	-0.554	inactive
Cpr50Ca (Cuticular protein 50Ca)	DRSC06375	-2.24	-0.84	-0.992	inactive
oc (ocelliless)	DRSC25006	-0.178	0.326	-0.535	inactive
Sumo (Small ubiquitin like modifier)	DRSC03611	-5.41	3.43	4.24	active
CG33286	DRSC11691	0.48	-1.23	0.317	inactive
CG33286	DRSC26119	-1.34	-1.75	-0.763	inactive

6 entries from above, reformatted.
{"Gene": "CG6415", "amplicon": "DRSC29833", "Wolbachia per cell robust z, rep 1": -0.265, "Wolbachia per cell robust z, rep 2": 0.58, "Wolbachia per cell robust z, rep 3": 0.324, "outcome": "inactive"}
{"Gene": "CG30037", "amplicon": "DRSC07305", "Wolbachia per cell robust z, rep 1": 0.557, "Wolbachia per cell robust z, rep 2": -0.423, "Wolbachia per cell robust z, rep 3": -0.161, "outcome": "inactive"}
{"Gene": "CG42329", "amplicon": "DRSC00373", "Wolbachia per cell robust z, rep 1": -6.72, "Wolbachia per cell robust z, rep 2": -6.9, "Wolbachia per cell robust z, rep 3": 0.461, "outcome": "inactive"}
{"Gene": "CG42329", "amplicon": "DRSC00682", "Wolbachia per cell robust z, rep 1": -0.735, "Wolbachia per cell robust z, rep 2": -0.0661, "Wolbachia per cell robust z, rep 3": -0.297, "outcome": "inactive"}
{"Gene": "CG15459", "amplicon": "DRSC20530", "Wolbachia per cell robust z, rep 1": 0.304, "Wolbachia per cell robust z, rep 2": -6.37, "Wolbachia per cell robust z, rep 3": -2.28, "outcome": "inactive"}
{"Gene": "CG15459", "amplicon": "DRSC21383", "Wolbachia per cell robust z, rep 1": 0.391, "Wolbachia per cell robust z, rep 2": 0.488, "Wolbachia per cell robust z, rep 3": 1.22, "outcome": "inactive"}
